In the assay the target is recombinant full-length mouse PrP (wt rPrP), PrP23-230 (mouse) (UniProt P04925).

These results are taken from paper PMC5722314, “Substitutions of PrP N-terminal histidine residues modulate scrapie disease pathogenesis and incubation time in transgenic mice” (2017).

For the substance “recombinant full-length mouse PrP (wt rPrP), PrP23-230, P04925 23-230”, the percent decrease of aggregation with 1 uM Cu2+ against 0.02% SDS alone was 70%, the percent decrease of aggregation with 100 uM EDTA against 0.02% SDS alone is 40% and the percent increase of aggregation with 30 uM Mn2+ against 0.02% SDS alone turned out to be 15%.
